The record followed here is PMC5789848.

The data set has as its target Tax WT (HTLV-1) (UniProt P03409). Nature of the data set: pull-down. Particulars: nonspecific RNA binding mentioned, data not shown; pull-down: BLI-like buffer, 30 C then 4 C, 200 mM NaCl wash; recombinant protein; residues 1-353; protein details: N-terminal GST; label: 3' biotin (BtnTg).

Construct, isoform or probe ends are uncertain for at least one entry. At least one verdict rests on a figure or table, not on a statement of the authors.

With “CGUCCAUCUGGUCAUCUAGUGAUAUCAUCG [30-mer ssRNA 3'-biotin (pull-down)]”, the binding result is recorded as “binds”.
